# Experimental data published in patent US20120329717A1, “Omega conotoxin peptides” (published 2012).
# Target: recombinant N-type (Cav2.2) VGCC α1B-b/α2δ1/β3 expressed in Xenopus oocytes (rat; rabbit) (UniProt Q02294)
# Test: cell-based or functional assay
substance,measurement,value
ω-conotoxin CVIF (peptide),fraction of current recovered from block (100 nM) at -65 mV HP,20.3%
same,fraction of current recovered from block (100 nM) at -125 mV HP,99%
